Results: patent US20230159453A1 (COCRYSTAL PHARMA, INC., priority 2020, published 2023)

Chains of the proteins cited; added tags and fusions are not shown. Residues count along the entry.
UniProt Q83883, 1101-1281 limits assumed: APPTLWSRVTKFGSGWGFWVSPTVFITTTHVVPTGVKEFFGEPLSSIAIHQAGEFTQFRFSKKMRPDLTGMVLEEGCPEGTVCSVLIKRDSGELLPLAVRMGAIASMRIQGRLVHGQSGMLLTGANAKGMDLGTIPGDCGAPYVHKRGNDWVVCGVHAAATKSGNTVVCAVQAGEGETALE

What was measured:
SARS2 protease = SARS2 protease (Severe acute respiratory syndrome coronavirus 2, UniProt P0DTD1); test: SARS-CoV-2 protease inhibition assay (SARS2 FRET protease assay); format: biochemical; settings: SARS-CoV-2 protease 25 nM, peptide substrate 1.3 μM, 30 minutes at 30° C., compounds 20 μM to 1.0 nM
Noro protease = Noro protease (Norovirus, UniProt Q83883); settings: FRET, peptide substrate 10 μM, 90 minutes at 37° C., compounds 200 μM to 10.2 nM

SMILES | IC50 (SARS2 protease; tested form: Na salt) [nM] | IC50 (SARS2 protease) [nM] | IC50 (Noro protease) [nM]
CC(C)C[C@H](NC(=O)OC1(Cc2cccc(Cl)c2)CC1)C(=O)N[C@@H](C[C@@H]1CCNC1=O)C(O)S(=O)(=O)O (some centres unmarked) | 300 |  | 
COc1cccc2[nH]c(C(=O)N[C@@H](CC3CCCCC3)C(=O)NC(CC3CC4(CCCCC4)NC3=O)C(=O)C(=O)NC3CC3)cc12 (some centres unmarked) |  | 44.5 | 37100
O=CC(CC1CC2(CCCCC2)NC1=O)NC(=O)[C@H](CC1CCCCC1)NC(=O)OC(Cc1cccc(Cl)c1)c1cccc(Cl)c1 (some centres unmarked) |  | 386 | 38300
